Experimental data: PubChem BioAssay AID1259414 (Drosophila RNAi Screening Center, 2018)
In all, the deposit lists about 24,000 reagents; shown is an unselected part of those with a known target gene and a result. In the full data, about 1,210 (5%) are marked active. 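Inactive calls also include excluded dsRNAs with several or no targets, genes unexpressed in JW18, and well A1, regardless of score.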 Names joined by + are all predicted targets of the reagent.

- Purpose: 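Host factors increasing or decreasing Wolbachia levels in cultured fly cells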 (primary screen)
- Cells: Drosophila JW18 cells infected with Wolbachia
- Reagents: long dsRNA against Drosophila genes, 0.25 µg dsRNA per well of a 384-well plate
- Timing: 5 days
- Conditions: cells persistently infected with Wolbachia before knock-down; no added drug
- Measured: 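Imaged fluorescence in situ signal for Wolbachia 23S rRNA per DAPI-counted host cell, given as a robust z-score within each plate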
- Direction: Wolbachia per cell robust z: higher = more Wolbachia per host cell than the plate typical
- Rule for the call: 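Active if absolute robust z reaches 1.5 in two or more of three replicates, leaving out multi- or no-target dsRNAs, genes unexpressed in JW18 and A1 wells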

Sol1 [DRSC15263]: Wolbachia per cell robust z, rep 1 = -0.0371; Wolbachia per cell robust z, rep 2 = -7.83; Wolbachia per cell robust z, rep 3 = -3.95; Call = inactive
Sol1 [DRSC15271]: Wolbachia per cell robust z, rep 1 = -1.15; Wolbachia per cell robust z, rep 2 = 0.593; Wolbachia per cell robust z, rep 3 = -0.58; Call = inactive
Sol1 [DRSC15681]: Wolbachia per cell robust z, rep 1 = -0.215; Wolbachia per cell robust z, rep 2 = -0.185; Wolbachia per cell robust z, rep 3 = -0.429; Call = inactive
Gr98d (Gustatory receptor 98d) [DRSC14571]: Wolbachia per cell robust z, rep 1 = -1.02; Wolbachia per cell robust z, rep 2 = 0.803; Wolbachia per cell robust z, rep 3 = -0.596; Call = inactive
Gr98d (Gustatory receptor 98d) [DRSC24547]: Wolbachia per cell robust z, rep 1 = -0.544; Wolbachia per cell robust z, rep 2 = -3.48; Wolbachia per cell robust z, rep 3 = -1.73; Call = inactive
Nrt (Neurotactin) [DRSC11237]: Wolbachia per cell robust z, rep 1 = 0.0939; Wolbachia per cell robust z, rep 2 = -0.0293; Wolbachia per cell robust z, rep 3 = -1.04; Call = inactive
CG30088 [DRSC21764]: Wolbachia per cell robust z, rep 1 = 0.8; Wolbachia per cell robust z, rep 2 = 0.862; Wolbachia per cell robust z, rep 3 = 0.332; Call = inactive
CG30088 [DRSC24797]: Wolbachia per cell robust z, rep 1 = -0.526; Wolbachia per cell robust z, rep 2 = -0.514; Wolbachia per cell robust z, rep 3 = -0.602; Call = inactive
BomS1 (Bomanin Short 1) [DRSC22678]: Wolbachia per cell robust z, rep 1 = 0.324; Wolbachia per cell robust z, rep 2 = 0.0189; Wolbachia per cell robust z, rep 3 = -0.949; Call = inactive
asRNA:CR43478 + CG14662 [DRSC12248]: Wolbachia per cell robust z, rep 1 = 0.987; Wolbachia per cell robust z, rep 2 = -2.09; Wolbachia per cell robust z, rep 3 = 0.668; Call = inactive
peo (pendolino) [DRSC05995]: Wolbachia per cell robust z, rep 1 = -1.31; Wolbachia per cell robust z, rep 2 = -0.239; Wolbachia per cell robust z, rep 3 = 0.233; Call = inactive
CG43980 [DRSC11500]: Wolbachia per cell robust z, rep 1 = -0.447; Wolbachia per cell robust z, rep 2 = -0.738; Wolbachia per cell robust z, rep 3 = -0.652; Call = inactive
CG43980 [DRSC11646]: Wolbachia per cell robust z, rep 1 = -0.378; Wolbachia per cell robust z, rep 2 = 1.06; Wolbachia per cell robust z, rep 3 = 0.126; Call = inactive
CG43980 [DRSC22923]: Wolbachia per cell robust z, rep 1 = 0.399; Wolbachia per cell robust z, rep 2 = 0.701; Wolbachia per cell robust z, rep 3 = 0.276; Call = inactive
CG43980 [DRSC26495]: Wolbachia per cell robust z, rep 1 = 0.676; Wolbachia per cell robust z, rep 2 = -0.234; Wolbachia per cell robust z, rep 3 = -0.673; Call = inactive
CG43980 [DRSC28616]: Wolbachia per cell robust z, rep 1 = 0.513; Wolbachia per cell robust z, rep 2 = 1.51; Wolbachia per cell robust z, rep 3 = 0.803; Call = inactive
CG13894 [DRSC23205]: Wolbachia per cell robust z, rep 1 = 0.418; Wolbachia per cell robust z, rep 2 = 0.367; Wolbachia per cell robust z, rep 3 = 1.35; Call = inactive
CG13894 [DRSC29274]: Wolbachia per cell robust z, rep 1 = 0.778; Wolbachia per cell robust z, rep 2 = 0.263; Wolbachia per cell robust z, rep 3 = 0.887; Call = inactive
Camp (Cathelicidin-like antimicrobial protein) [DRSC07004]: Wolbachia per cell robust z, rep 1 = 0.0665; Wolbachia per cell robust z, rep 2 = 0.479; Wolbachia per cell robust z, rep 3 = 0.803; Call = inactive
caz (cabeza) [DRSC23280]: Wolbachia per cell robust z, rep 1 = 0.546; Wolbachia per cell robust z, rep 2 = -0.487; Wolbachia per cell robust z, rep 3 = 1.2; Call = inactive
caz (cabeza) [DRSC29957]: Wolbachia per cell robust z, rep 1 = 0.195; Wolbachia per cell robust z, rep 2 = -0.596; Wolbachia per cell robust z, rep 3 = 0.44; Call = inactive
CG13029 [DRSC09909]: Wolbachia per cell robust z, rep 1 = -0.754; Wolbachia per cell robust z, rep 2 = -0.0654; Wolbachia per cell robust z, rep 3 = 0.332; Call = inactive
usp (ultraspiracle) [DRSC18847]: Wolbachia per cell robust z, rep 1 = 0.0164; Wolbachia per cell robust z, rep 2 = 0.846; Wolbachia per cell robust z, rep 3 = -1.93; Call = inactive
usp (ultraspiracle) [DRSC24447]: Wolbachia per cell robust z, rep 1 = -0.993; Wolbachia per cell robust z, rep 2 = 1.2; Wolbachia per cell robust z, rep 3 = 0.333; Call = inactive
